Compound potency records, mixed from different reports. Data source: NIAID ChemDB in PubChem.

Common to all: whole-cell or culture tests; species: Aspergillus niger; endpoint: zone

Blank or dashed fields: not listed here. Zones are inhibition diameters on agar. Neighbouring rows are from separate reports.

structure,method,strain or isolate,tested at,result
Cc1ccc2nc(Cl)c(CNc3ccc(F)cc3)cc2c1,agar diffusion,MTCC 281,200 µg/mL,12 mm
Cc1ccc(O)c(/C=N/NC(=O)Nc2nc(-c3ccccc3)cs2)c1,agar diffusion,,100 µg/mL,17 mm
C[C@@H]1O[C@@H](OC[C@H]2O[C@@H](Oc3ccc(-c4oc5cc(O)cc(O)c5c(=O)c4O)cc3)[C@H](O)[C@@H](O)[C@@H]2O)[C@H](O)[C@H](O)[C@H]1O,agar diffusion / agar,,50000 µg/mL,0 mm
Cc1ccc(N2NOC(=O)C2S(=O)(=O)Nc2nc(-c3ccc(Br)cc3)cs2)cc1,agar diffusion,MTCC 282,250 µg/mL,21 mm
COc1ccc(-n2c(C)nc3ccc(Br)cc3c2=O)cc1,agar diffusion / agar,,50 µg/mL,17.46 mm
Cc1nc(Nc2ccccc2)nc(C)c1C#N,,,10 µg/mL,1.4 mm
O=c1c(O)c(-c2ccc(Cl)cc2)oc2ccc(Cl)cc12,agar diffusion,,100 µg/mL,17 mm
COc1cc2occc2c(O)c1C(=O)/C=C/c1ccccc1,agar diffusion,,50 µg/disc,9.5 mm
C(/C=C/c1ccccc1)=NCCNCCN=C/C=C/c1ccccc1.[I][Hg][I],agar diffusion,,30000 µg/mL,42 mm
O=C1NC(=O)C(=Cc2cn(-c3ccccc3)nc2-c2cc3cc(Cl)cc(Cl)c3oc2=O)C(=O)N1,agar diffusion / agar,,150 µg,0 mm
Cc1cc(C)nc(Nc2ccccc2)n1,,,1000 µg/mL,4 mm
COc1ccc(-c2oc3ccccc3c(=O)c2O)cc1OC,agar diffusion,,100 µg/mL,11 mm
Cc1ccc2nc(Cl)c(CNc3cccc(Cl)c3)cc2c1,agar diffusion,MTCC 281,200 µg/mL,12.03 mm
CC(=O)Oc1c(-c2ccc(Cl)cc2)oc2ccc(Cl)cc2c1=O,agar diffusion,,100 µg/mL,22 mm
CC(C)(CN=C/C=C/c1ccccc1[N+](=O)[O-])CN=C/C=C/c1ccccc1[N+](=O)[O-],agar diffusion,,1.25 mg/disc,0.65 mm
O=C1NC(=S)NC(=O)C1=Cc1cn(-c2ccccc2)nc1-c1cc2cc(Br)ccc2oc1=O,agar diffusion / agar,,100 µg,0 mm
O=C(O)c1ccc(O)c(O)c1,agar diffusion / agar,,50000 µg/mL,0.62 mm
CC(=O)Oc1c(-c2ccccc2)oc2ccccc2c1=O,agar diffusion,,100 µg/mL,14 mm
O=C1NC(=O)C(=Cc2cn(-c3ccccc3)nc2-c2cc3cc(Br)cc(Br)c3oc2=O)C(=O)N1,agar diffusion / agar,,100 µg,7 mm
CC(=O)N(c1ccccc1)c1nc(C)cc(C)n1,,,1000 µg/mL,3.4 mm
C(/C=C/c1ccccc1)=NCCNCCN=C/C=C/c1ccccc1.N#C[S][Hg][S]C#N,agar diffusion,,30000 µg/mL,28 mm
Cc1nc2ccc(Br)cc2c(=O)n1-c1ccc(Br)cc1,agar diffusion / agar,,50 µg/mL,24.77 mm
CC(=O)Oc1c(-c2ccc(N(C)C)cc2)oc2ccccc2c1=O,agar diffusion,,100 µg/mL,13 mm
COc1ccc(NCc2cc3cc(C)ccc3nc2Cl)cc1,agar diffusion,MTCC 281,200 µg/mL,9.76 mm
Cc1ccc(N2NOC(=O)C2S(=O)(=O)Nc2ccc(-n3c(-c4cccc(Cl)c4)nc4ccccc4c3=O)cc2)cc1,agar diffusion,MTCC 282,250 µg/mL,25 mm
O=C1NC(=O)C(=Cc2cn(-c3ccccc3)nc2-c2cc3cc(Br)ccc3oc2=O)C(=O)N1,agar diffusion / agar,,150 µg,20 mm
NC(=O)c1ccc(Cc2cn(CCc3ccccc3)c(=O)n(Cc3ccccc3)c2=O)cc1,agar diffusion / agar,,10000 µg/mL,0.54 mm
CC(=O)Oc1c(-c2ccc(F)cc2)oc2ccc(Cl)cc2c1=O,agar diffusion,,100 µg/mL,18 mm
Cc1ccc2nc(Cl)c(CNCc3ccccc3)cc2c1,agar diffusion,MTCC 281,200 µg/mL,13.06 mm
Cc1nc(C)c(CC(O)c2ccc(Cl)cc2)nc1C,agar diffusion / agar,,10000 µg/mL,0.42 mm
Oc1cccc2cccnc12,agar diffusion / agar,,25 µg/mL,21 mm
O=C1NC(=O)C(=Cc2cn(-c3ccccc3)nc2-c2cc3ccc4ccccc4c3oc2=O)C(=O)N1,agar diffusion / agar,,100 µg,0 mm
C[C@@H]1[C@H](O)[C@@H](C)/C=C/C=C/CC/C=C/C=C/C=C/C=C/C(O[C@H]2O[C@H](C)[C@@H](O)[C@H](N)[C@@H]2O)CC2O[C@](O)(CC(O)C(O)CCC(O)CC(O)CC(O)CC(=O)O[C@H]1C)CC(O)C2C(=O)O,agar diffusion,,50 µg/disc,23 mm
CC(C)(C)c1ccc(O)c(C(C)(C)C)c1,agar diffusion / agar,,10000 µg/mL,0.51 mm
Cc1nc2ccc(Br)cc2c(=O)n1-c1ccccc1,agar diffusion / agar,,50 µg/mL,12.52 mm
Cc1ccc2nc(Cl)c(CN3CCOCC3)cc2c1,agar diffusion,MTCC 281,200 µg/mL,6.25 mm
O=c1cc(-c2ccccc2)oc2c1ccc1occc12,agar diffusion,,50 µg/disc,9 mm
O=c1c(O)c(-c2ccc(F)cc2)oc2ccc(Cl)cc12,agar diffusion,,100 µg/mL,17 mm
Cc1ccc(N2NOC(=O)C2S(=O)(=O)Nc2nc3ccc(Cl)cc3s2)cc1,agar diffusion,MTCC 282,250 µg/mL,24 mm
Cc1nc2ccc(Br)cc2c(=O)n1-c1ccc(Cl)c(Cl)c1,agar diffusion / agar,,50 µg/mL,24.12 mm
Oc1cccc2cccnc12,agar,,25 µg/mL,21 mm
Cc1ccc(N2NOC(=O)C2S(=O)(=O)Nc2nc(-c3c(F)cc(Cl)cc3Cl)cs2)cc1,agar diffusion,MTCC 282,250 µg/mL,17 mm
Oc1ccccc1,agar diffusion / agar,,50000 µg/mL,0.43 mm
Cc1ccc(N2NOC(=O)C2S(=O)(=O)Nc2ccc(-n3c(-c4ccc([N+](=O)[O-])cc4)nc4ccccc4c3=O)cc2)cc1,agar diffusion,MTCC 282,250 µg/mL,24 mm
CN(C/C=C/C#CC(C)(C)C)Cc1cccc2ccccc12,agar diffusion,MTCC 281,200 µg/mL,21.58 mm